Species on record: Mus musculus
Assay: Acute toxicity in Mus musculus (mouse)
Format: organism-based
Conditions: in vivo

| SMILES | LD50 |
| --- | --- |
| CCCSP(=O)(Nc1ncc(C(F)(F)F)cc1Cl)OCC (configuration not stated) | < 30 mg/kg |
| CCOP(=O)(SC(C)CC)N1CC(=O)N(C)C1=O (configuration not stated) | 39 mg/kg |

— ChEMBL document CHEMBL3044645, “Synthesis and Pesticidal Activities of N-Phosphinoyl Heterocycles” (J Pestic Sci, 1997)
